Reference: the supplement of paper PMC9931576
Human monoclonal antibodies against the spike receptor-binding domain (heavy:light variable regions). IC50 against pseudoviruses bearing the spike of naturally observed variants; lower = stronger; >10 µg/ml means not reached at the top dose. No active / inactive call. The stated detection limit is 0.0005 µg/ml; values near or below 0.001 µg/ml lie at the floor of the assay.

B1: BD56-1950 (protein)
chain 1: QVQLVESGGGVVQPGRSLRLSCAASGFSFRTYPMHWVRQAPGKGLEWVAVISHDGTEKYYTDSLKGRFTISRDNSKNTLFLQMNSLRAEDTAVYYCAKDWVAGYCRGGRCNSYNGLDVWGQGTTVTVSS
chain 2: DFMLTQPHSVSESPGKTVTISCTRSGGTIVSNYVQWYQQRPGSAPATVIYEDDQRPSGVPDRFSGSIDSSSNSASLTISGLETEDEADYYCQSHDGSKMIFGGGTKLTVL
B2: BD57-0117 (protein)
chain 1: QIQLVQSGAEVKKPGSSVKLSCTAFGGTLNSYAINWVRQAPGQGLEWMGRIIPIFSVVNYAEKFQDRVTITADTSTATGSMGTATFYMELTTLTSEDTAVYFCARDRPPFGAGRIWGQGTLVSVST
chain 2: DIQMTQSPSSLSASVGDRVTITCQASQDIGKFLNWYQQKPGKSPQLLISEASTLETGVPSRFSGGGSGTDFHFTISSLQPEDIATYYCQQYDHFLTFGPGTKVNVK
B3: BD57-0124 (protein)
chain 1: EVQLVESGGGLVKPGGSLRLSCAASGFSFSDAWMTWVRLAPGKGLEWVGHIKSKTDGGTTHHAAPVKGRFTISRDDSKNTLYLQMSSLKTEDTAVYYCIWSDTLTLYIDYGMDVWGQGTTVTVSS
chain 2: DIQMTQSPSTLSASVGDRVTITCRASQSISTWLAWYQQKPGKAPELLIYKASTLESGVPSRFSGSGSGTEFTLTISSLQPDDSATYYCQQYNNYYWTFGQGTKVEIK
B4: BD57-0125 (protein)
chain 1: EVQLAESGGGLVQPGGSLRLSCVASGFSFSTYDMHWVRQTPGKGLEWVSAIGTAGDTYYPDSVKGRFTISRENARNSLYLEMNSLRAGDTAVYFCTRALHSVVRGGLQTYYYYYMDVWGKGTTVAVSS
chain 2: DIQMTQSPSSLSASVGDTVTITCRASQTINSYLNWYQQKPGKAPKLLIFAASTLQTGVPSRFSGSGSGTEFTLTISSLQPEDFATYYCQQSYIMPGWTFGPGTTVEIK
B5: BD57-0131 (protein)
chain 1: QVQLVESGGGVVQPGTSLRLSCAASGFTFNRYGLHWVRQAPGKGLEWVAVMSFDGSHIYYAHSVKGRFTISRDNSRNTLYLQMRSLRAEDTAVYYCVRDSGDGITGTTGWLAPWGQGALVTVSA
chain 2: SYVLTQPPSVSVAPGQTAKITCEADSIGSKSVHWYQQKSGQAPVLVVYDDSDRPSGIPERFSGSNSGNTATLTISRVEAGDEADYYCQVWDGSGDPFVFGSGTKVTVL
B6: BD57-0132 (protein)
chain 1: EVQLVESGGGLVKPGGSLRLSCVASGFTFSSYSMNWVRQAPGKGLEWVSSISRSDTTTYYADSVRGRFTISRDSAKNSLYLQMNSLRAEDTAVYYCARGDLWGFDLVMEVAGHFDYWGQGTLVTVSS
chain 2: EIVLTQSPGTLSLSPGERATLSCRASQSVSSSSLAWYQQKPGQAPRLLIYGAFSRATGIPDRFSGSGSGTDFTLTISRLEPEDFAVYYCQQFGSSPLYTFGQGTKLEIK
B7: BD57-0135 (protein)
chain 1: QVLLVESGGGVVQPGRSLRLSCAASGFPFSTFGLHWVRQSPGKGLEWVSLISYDGANKVYADSVKGRFTISRDNSKNTLYLQMKSLRPEDTAVYYCARDPGDGITGTTGWLGPWGQGTLVTVS
chain 2: SYVLTQPPSVSVAPGQTARITCGGDSIGSKSVHWYQQKPGQAPVLVVYDDSDRPSGIPERFSGSNSGNTATLTISRVEVGDEADYYCQVWDSSTDPYVFGIGTKVTVL
B8: COVOX-150 (protein)
chain 1: QVQLVESGGGLIQPGGSLRLSCAASGVTVSSNYMSWVRQAPGKGLEWVSIIYSGGTTYYADSVKGRFTISRDSSMNTLYLQMNSLRAEDTAVYYCARDLMVYGIDVWGQGTTVTVSS
chain 2: IVMTQSPSSLSASVGDRVTITCRASQGISSYLAWYQQKPGKAPKLLIYAASTLQSGVPSRFSGSGSGTDFTLTISSLQPEDFATYYCQQLDSYPPGYTFGQGTKVDIK
B9: BD57-0142 (protein)
chain 1: QVQLQESGPGLVKPSETLSLTCTVSGGSISSSIYYWAWIRQPPGKGLEWIGSINYSGNTYHSPSLKSRVTISEDTSQNQFSLKLISVTAADTAIYYCARHELGRYYGSGTYHTDDCFDYWGPGTLVIVSS
chain 2: QSVVTQPPSASGTPGQRVTISCSGSNFNIGSNPVTWYQQFPGTAPKLLIYTNNQRGPGVPDRFSGSKSGTSASLAISGLQSEDEADYYCATWDDSLNGPVFGGGTKLTVL
B10: BD57-0143 (protein)
chain 1: QVQLVQSGTEVKKPGSSVKVSCKASGGTFSISAFNWVRQAPGQGLEWMGRIIPVPDITNYAQKFQGRVTITADKSTSTAYMELRSLRSEDTAVYYCASPFKRGYSGYDFFDYGLDVWGRGTTVIVSS
chain 2: DIQMTQSPSSLSASVGDRVTITCQASQDINNNLNWYQHKPGKAPSLLIYDASTLQTGVPSRFSGGGSGTHFTFTVSSLQPEDIATYYCQQSDELPLTFGGGTKVEIK
B11: BD57-0150 (protein)
chain 1: QVQLQESGPGLVKPSETLSLTCTVSGGSISSSSYYWGWIRQPPGKGLEWIGSIYHSGTTYYNPSLKSRVSISVDTSKNHFSLKLNSVTAADTAMYYCARELLLIDVWGQGTTVTVSS
chain 2: DIQMTQSPSSLSASVGDRVTITCQASQDINNYLSWYQQKPGKAPKLLIYDASNLQTGVSSRFSGSGSGTDFTFTISSLQAEDIATYYCQHYDNLPPGGIFGPGTKVDIK
B12: BD57-0155 (protein)
chain 1: QVQLVESGGGVVQPGRSLRLSCAASGFTFRNYGMHWVRQPPGKGLEWVALISYDGSDKYYADSVKGRFTISRDSSKNTLFLQMNSLRAEDTAVYYCVKGPWYSSSWEYYFEYWGQGTLVTVSS
chain 2: DIQMIQSPSSLSASLGDRVTITCRASQSINSHLNWYQQKPGKAPNLLIYDASNLQSGVPSRVSGSGSGTDFALTISSLQPEDFATYYCQQSYSIPLTFGGGTKVEIK

Molecular target: SARS-CoV-2 Omicron BA.1 spike pseudovirus
Test: pseudovirus neutralization IC50; higher = weaker neutralization
Description: (§1)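 Single-round VSV luciferase pseudovirus mixed with antibody dilutions for 1 h and put on Huh-7 cells for about a day; IC50 from the dose curve.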

Going from B1 to B2, the “pseudovirus neutralization IC50” value falls from over 10 µg/mL to 0.797 µg/mL.

Compared with B3, B4 is higher in “pseudovirus neutralization IC50” value: 1.63 µg/mL for the first, over 10 µg/mL for the second.

Compared with B5, B6 is higher in “pseudovirus neutralization IC50” value: 2.43 µg/mL for the first, over 10 µg/mL for the second.

Compared with B7, B8 is higher in “pseudovirus neutralization IC50” value: 2.55 µg/mL for the first, over 10 µg/mL for the second.

Going from B9 to B10, the “pseudovirus neutralization IC50” value rises from 1.6 µg/mL to over 10 µg/mL.

Going from B11 to B12, the “pseudovirus neutralization IC50” value rises from 0.901 µg/mL to 5.16 µg/mL (5.7-fold).

Molecular target: SARS-CoV-2 Omicron BA.2 spike pseudovirus
Test: as above
Description: as §1

Compared with B1, B2 is lower in “pseudovirus neutralization IC50” value: over 10 µg/mL for the first, 0.000523 µg/mL for the second.

Compared with B3, B4 is higher in “pseudovirus neutralization IC50” value: 1.87 µg/mL for the first, over 10 µg/mL for the second.

Compared with B5, B6 is higher in “pseudovirus neutralization IC50” value: 2.38 µg/mL for the first, over 10 µg/mL for the second.

First: B7
Second: B8
The “pseudovirus neutralization IC50” value of the first is lower: 1.97 µg/mL for the first, over 10 µg/mL for the second.

Going from B9 to B10, the “pseudovirus neutralization IC50” value rises from 1.94 µg/mL to over 10 µg/mL.

First: B11
Second: B12
The “pseudovirus neutralization IC50” value of the first is 14-fold lower: 0.409 µg/mL for the first, 5.57 µg/mL for the second.

Molecular target: SARS-CoV-2 Omicron BA.2.75 spike pseudovirus
Test: as above
Description: as §1

Going from B1 to B2, the “pseudovirus neutralization IC50” value falls from over 10 µg/mL to 0.000485 µg/mL.

Going from B3 to B4, the “pseudovirus neutralization IC50” value rises from 3.3 µg/mL to over 10 µg/mL.

First: B5
Second: B6
The “pseudovirus neutralization IC50” value of the first is lower: 3.91 µg/mL for the first, over 10 µg/mL for the second.

First: B7
Second: B8
The “pseudovirus neutralization IC50” value of the first is lower: 2.58 µg/mL for the first, over 10 µg/mL for the second.

First: B9
Second: B10
The “pseudovirus neutralization IC50” value of the first is lower: 2.7 µg/mL for the first, over 10 µg/mL for the second.

Compared with B11, B12 is 5.1-fold higher in “pseudovirus neutralization IC50” value: 0.644 µg/mL for the first, 3.28 µg/mL for the second.

Molecular target: SARS-CoV-2 Omicron BA.5 spike pseudovirus
Test: as above
Description: as §1

First: B1
Second: B2
The “pseudovirus neutralization IC50” value of the first is higher: over 10 µg/mL for the first, 0.000888 µg/mL for the second.

Going from B3 to B4, the “pseudovirus neutralization IC50” value rises from 2.37 µg/mL to over 10 µg/mL.

Going from B5 to B6, the “pseudovirus neutralization IC50” value rises from 1.89 µg/mL to over 10 µg/mL.

First: B7
Second: B8
The “pseudovirus neutralization IC50” value of the first is lower: 2.46 µg/mL for the first, over 10 µg/mL for the second.

Going from B9 to B10, the “pseudovirus neutralization IC50” value rises from 3.07 µg/mL to over 10 µg/mL.

Going from B11 to B12, the “pseudovirus neutralization IC50” value rises from 3.87 µg/mL to over 10 µg/mL.

Molecular target: SARS-CoV-2 Omicron BQ.1.1 spike pseudovirus
Test: as above
Description: as §1

B1 and B2 cannot be ordered by “pseudovirus neutralization IC50” value: over 10 µg/mL for the first, over 10 µg/mL for the second.

Compared with B3, B4 is higher in “pseudovirus neutralization IC50” value: 5.03 µg/mL for the first, over 10 µg/mL for the second.

B5 and B6 cannot be ordered by “pseudovirus neutralization IC50” value: over 10 µg/mL for the first, over 10 µg/mL for the second.

B7 and B8 cannot be ordered by “pseudovirus neutralization IC50” value: over 10 µg/mL for the first, over 10 µg/mL for the second.

B9 and B10 cannot be ordered by “pseudovirus neutralization IC50” value: over 10 µg/mL for the first, over 10 µg/mL for the second.

B11 and B12 cannot be ordered by “pseudovirus neutralization IC50” value: over 10 µg/mL for the first, over 10 µg/mL for the second.

Molecular target: SARS-CoV-2 Omicron XBB spike pseudovirus
Test: as above
Description: as §1

B1 and B2 cannot be ordered by “pseudovirus neutralization IC50” value: over 10 µg/mL for the first, over 10 µg/mL for the second.

Going from B3 to B4, the “pseudovirus neutralization IC50” value rises from 4.8 µg/mL to over 10 µg/mL.

B5 and B6 cannot be ordered by “pseudovirus neutralization IC50” value: over 10 µg/mL for the first, over 10 µg/mL for the second.

B7 and B8 cannot be ordered by “pseudovirus neutralization IC50” value: over 10 µg/mL for the first, over 10 µg/mL for the second.

First: B9
Second: B10
The “pseudovirus neutralization IC50” value of the first is lower: 3.57 µg/mL for the first, over 10 µg/mL for the second.

B11 and B12 cannot be ordered by “pseudovirus neutralization IC50” value: over 10 µg/mL for the first, over 10 µg/mL for the second.

Molecular target: SARS-CoV-2 early D614G spike pseudovirus
Test: as above
Description: as §1

Compared with B1, B2 is lower in “pseudovirus neutralization IC50” value: over 10 µg/mL for the first, 0.278 µg/mL for the second.

B3 and B4 cannot be ordered by “pseudovirus neutralization IC50” value: over 10 µg/mL for the first, over 10 µg/mL for the second.

B5 and B6 cannot be ordered by “pseudovirus neutralization IC50” value: over 10 µg/mL for the first, over 10 µg/mL for the second.

First: B7
Second: B8
The “pseudovirus neutralization IC50” value of the first is higher: over 10 µg/mL for the first, 0.084 µg/mL for the second.

First: B9
Second: B10
The “pseudovirus neutralization IC50” value of the first is 60-fold higher: 1.14 µg/mL for the first, 0.0191 µg/mL for the second.

First: B11
Second: B12
The “pseudovirus neutralization IC50” value of the first is lower: 0.199 µg/mL for the first, over 10 µg/mL for the second.
